A mixed list of measured activities; the numbers were collected in NIAID ChemDB.

Shared fields: tests in culture

ECn is the concentration giving n% inhibition of infection, replication or growth.

smiles,species,measure,conditions,strain,dose,cells,mutations,read by,value
CC1COc2c(N3CCN(C)CC3)c(F)cc3c(=O)c(C(=O)O)cn1c23,Enterococcus faecium,MIC50,-,10 strains,-,-,-,-,2 µg/mL
NC(=O)c1csc([C@@H]2O[C@H](CO)[C@@H](O)[C@H]2O)n1,Measles virus,EC50,-,Edmonston,-,HeLa,-,cytopathic effect,86 µg/mL
O=c1[nH][se]c2ncccc12,Vesicular stomatitis virus,MIC,-,-,-,-,-,-,>1000 µg/mL
Nc1ccn([C@@H]2C[C@@H](O)[C@H](CO)O2)c(=O)n1,Parainfluenza virus,EC50,-,TYPE 3,-,MA-104,-,-,>100 µM
O=C(O)c1cc2oc3ccccc3c2cc1O,Rhinovirus,inhibition,-,TYPE 16,50 µM,HELA-H1,-,plaque count,95%
Nc1nc(=O)n([C@@H]2CS[C@H](CO)O2)cc1F,SIV,EC90,-,-,-,PBMC,-,p27 / ELISA,0.58 µM
O=C(O)CP(=O)(O)O,Varicella zoster virus,EC50,-,PFA-resistant/A,-,HEL,-,plaque count,35.6 µg/mL
CN1C(=O)[C@]23CC4=CC=C[C@H](O)[C@H]4N2C(=O)[C@@]1(CO)S3,Coxsackie virus,EC50,-,TYPE A21,-,HeLa,-,-,0.02 µg/mL
Cc1cn([C@@H]2C[C@@H](O)[C@H](CO)O2)c(=O)[nH]c1=O,Duck hepatitis B virus,EC50,-,-,-,PDH,-,-,0.054 µM
CN1CCN(c2c(F)cc3c(=O)c(C(=O)O)cn4c3c2SCC4CF)CC1,Staphylococcus aureus,MIC50,-,30 strains,-,-,-,-,0.5 µg/mL
Nc1nc(Cl)nc2c1ncn2[C@H]1CC[C@@H](CO)O1,Bovine herpesvirus 1,EC50,-,IRB-LA,-,MDBK,-,cytopathic effect,>50 µM
Nc1ncnc2c1ncn2[C@@H]1C[C@@H](O)[C@H](CO)O1,Parainfluenza virus,EC50,-,TYPE 3,-,MA-104,-,-,>100 µM
Nc1nccc2c1ncn2[C@@H]1C=C[C@@H](O)[C@H]1O,Semliki Forest virus,EC50,-,-,-,VERO,-,cytopathic effect,>200 µg/mL
OC[C@@H]1C[C@@H](O)[C@H](n2cnc3c(NC4CCCCC4)nc(Cl)cc32)O1,Bovine herpesvirus 1,EC50,-,IRB-LA,-,MDBK,-,cytopathic effect,>50 µM
Clc1ccc(COC(Cn2ccnc2)c2ccc(Cl)cc2Cl)c(Cl)c1,Candida albicans,MIC100,-,LM 42V,-,-,-,broth dilution,32 µg/mL
COC(=O)Nc1nc2ccc(C(=O)c3cccs3)cc2[nH]1,Cryptococcus neoformans,EC50,-,IU8698,-,-,-,-,0.09 µg/mL
Nc1nc(N)c2ncn([C@H]3CO[C@@H](CO)O3)c2n1,Duck hepatitis B virus,EC50,-,WILD TYPE,-,LMH,-,-,16.9 µM
Nc1ncnc2c1ncn2[C@@H]1C=C[C@@H](O)[C@H]1O,Sindbis virus,EC50,-,-,-,VERO,-,cytopathic effect,>400 µg/mL
N=C(N)c1ncn([C@@H]2O[C@H](CO)[C@@H](O)[C@H]2O)n1,Influenza A virus,EC50,-,Influenza A/Panama/2007/99 (H3N2),-,MDCK,-,neutral red,18 µg/mL
CSS[C@@]12CC3=COC=CC(OC(C)=O)C3N1C(=O)[C@]1(SSC)CC3=COC=CC(OC(C)=O)C3N1C2=O,Coxsackie virus,EC50,-,TYPE A21,-,HeLa,-,-,0.07 µg/mL
OC[C@@H]1CC[C@H](n2cnc3c(NC4CC4)ncnc32)O1,Bovine herpesvirus 1,EC50,-,IRB-LA,-,MDBK,-,cytopathic effect,50 µM
CCCCCCCCN1[C@H](CN)[C@@H](O)[C@H](O)[C@H]1CO,Dengue virus,EC50,-,-,-,-,-,-,>50 µM
OC1c2ccccc2C=Cc2ccccc21,Rhinovirus,inhibition,-,TYPE 16,50 µM,HELA-H1,-,plaque count,80%
O=C1N(Cc2ccc(CO)cc2)[C@H](Cc2ccccc2)[C@H](O)[C@@H](O)[C@@H](Cc2ccccc2)N1Cc1ccc(CO)cc1,HIV-1,EC95,-,NL4-3,-,MT-4,PR-M46I,p24,0.2 µM
C[C@H]1NCc2cc(-c3ccc4c(=O)c(C(=O)O)cn(C5CC5)c4c3OC(F)F)ccc21,Haemophilus influenzae,MIC90,-,18 strains (beta-lactamase-negative),-,-,-,-,0.03 µg/mL
CC(C)c1cc2c(c(O)c1O)[C@@]13CCCC(C)(C)C1C[C@@H]2OC3=O,Aspergillus tubingensis,zone,-,-,200 µg/mL,-,-,agar diffusion,0 mm
CO[C@H]1/C=C/O[C@@]2(C)Oc3c(C)c(O)c4c(O)c(c5c(c4c3C2=O)NC2(CCN(CC(C)C)CC2)N=5)=NC(=O)/C(C)=C\C=C\[C@H](C)[C@H](O)[C@@H](C)[C@@H](O)[C@@H](C)[C@H](OC(C)=O)[C@@H]1C,Mycobacterium avium,MBC,-,3337-4,-,-,-,-,>32 µg/mL
COc1cc2oc(=O)ccc2cc1CC(O)C(C)(C)O,Trichophyton mentagrophytes,MIC,-,-,-,-,-,-,250 µg/mL
C/C=C1/CN2CCC34c5ccccc5N5C(OC)C67OC(C([C@H]53)[C@H]1C[C@H]24)N1c2ccccc2C2(CCN3C/C(=C/C)[C@@H]6C[C@H]32)[C@@H]17,Plasmodium falciparum,EC90,-,W2,-,-,-,-,2.969 µg/mL
NC(=O)c1ncn([C@@H]2O[C@H](CO)[C@@H](O)[C@H]2O)n1,Measles virus,EC50,-,Edmonston,-,CV-1,-,neutral red,10 µg/mL
C=C1CN2CCC34c5ccccc5N5C=C([C@H]6CC7C8=C(CCN7C/C6=C/C)C6C=CC=CC6N8)[C@@H](O)[C@@H]([C@H]53)[C@H]1C[C@]24O,Plasmodium falciparum,EC90,-,W2,-,-,-,-,54.23 µg/mL
O=c1c2cccnc2[se]n1N(c1ccccc1)c1ccccn1,Vesicular stomatitis virus,MIC,-,-,-,-,-,-,500 µg/mL
C[C@H]1C[C@@H](n2cnc3c(N)ncnc32)[C@H](O)[C@@H]1O,Varicella zoster virus,EC50,-,OKA,-,HEL,-,cytopathic effect,8 µg/mL
OC[C@H]1O[C@@H](n2cnc3c(NC4CCCCCC4)cc(Cl)nc32)C[C@@H]1O,Bovine herpesvirus 1,EC50,-,IRB-LA,-,MDBK,-,cytopathic effect,>50 µM
Nc1ccc(S(=O)(=O)c2ccc(N)cc2)cc1,Mycobacterium ulcerans,MIC,-,Isolate 5143,-,-,-,-,0.5 µg/mL
OC[C@H]1O[C@@H](n2cnc3c(NC4CC4)nc(Cl)nc32)[C@H](O)[C@@H]1O,Maedi-visna virus,EC50,-,KV1772,-,Sheep chondrocytes G81092,-,cytopathic effect,15 µM
Cc1cn(COC2CP(=O)(Oc3ccccc3)OC2C)c(=O)[nH]c1=O,Sandfly fever virus,EC50,-,Sicilian strain Vero cells,-,-,-,cytopathic effect,>320 µg/mL
CC(=O)OC1C=COC=C2C[C@@]3(SC(C)=O)C(=O)N4C5C(=COC=CC5OC(C)=O)C[C@@]4(SC(C)=O)C(=O)N3C21,Coxsackie virus,EC50,-,TYPE A21,-,HeLa,-,-,0.09 µg/mL
O=C(Nc1ccccc1)c1c(O)[nH]c(=S)[nH]c1=O,Epstein-Barr virus,EC50,-,-,-,Akata-Bx1,-,PCR,42.76 µM
CC(C)c1cc2c(c(O)c1O)[C@@]1(C(=O)O)CCCC(C)(C)C1CC2,Aspergillus tubingensis,zone,-,-,200 µg/mL,-,-,agar diffusion,0 mm
O=C(O)P(=O)(O)O,Varicella zoster virus,EC50,-,PFA-resistant/A,-,HEL,-,plaque count,72.1 µg/mL
O=C1N(Cc2ccc(CO)cc2)[C@H](Cc2ccccc2)[C@H](O)[C@@H](O)[C@@H](Cc2ccccc2)N1Cc1ccc(CO)cc1,HIV-1,inhibition,-,Clinical isolate L,0.18 µM,PBMC,-,p24,90%
CCC(C)n1ncn(-c2ccc(N3CCN(c4ccc(OC[C@H]5CO[C@](Cn6cncn6)(c6ccc(Cl)cc6Cl)O5)cc4)CC3)cc2)c1=O,Candida albicans,MIC,-,Darlington,-,-,-,-,>16 µg/mL
C[n+]1cccc(-n2[se]c3ccccc3c2=O)c1,Vesicular stomatitis virus,MIC,-,-,-,-,-,-,80 µg/mL
C/C=C1/CN2CCC34c5ccccc5N5C=C6[C@H]7C[C@@H]8N(CCC89c8ccccc8N(C=C([C@H]1C[C@H]23)[C@H]54)[C@@H]69)C/C7=C/C,Plasmodium falciparum,EC90,-,3D7,-,-,-,-,7.38 µg/mL
CO/N=C(/C(=O)N[C@@H]1C(=O)N2C(C(=O)[O-])=C(C[N+]3(C)CCCC3)CS[C@H]12)c1csc(N)n1,Pseudomonas aeruginosa,MIC,-,S10,-,-,-,-,4 µg/mL
CCCN1CCN(c2cc(=O)c3nc4c(oc3c2)c2c(=O)c3c(O)c(C)c5c(c34)=C(O)[C@@](C)(O/C=C/[C@H](OC)[C@@H](C)[C@@H](OC(C)=O)[C@H](C)[C@H](O)[C@H](C)[C@@H](O)[C@@H](C)/C=C/C=C(/C)C(=O)N2)O5)CC1,Staphylococcus aureus,MIC50,-,20 strains (methicillin-resistant),-,-,-,-,0.0039 µg/mL
[Al]#[P],Aspergillus terreus,zone,-,-,1 mg/mL,-,-,agar diffusion,4.2 mm
CCN1CCN(C(=O)N[C@@H](C(=O)N[C@@H]2C(=O)N3[C@@H]2SC(C)(C)[C@@H]3C(=O)O)c2ccccc2)C(=O)C1=O,Pseudomonas aeruginosa,MIC,-,S10,-,-,-,-,2 µg/mL
COC(=O)Nc1nc2ccccc2[nH]1,Cryptococcus neoformans,EC50,-,ATCC 14116,-,-,-,-,1.6 µg/mL
COc1cc(Cc2cnc(N)nc2N)cc(OC)c1OCCCNc1ccc(S(=O)(=O)c2ccc(N)cc2)cc1,Mycobacterium ulcerans,MBC,-,Isolate 842,-,-,-,-,4 µg/mL
CC(=O)OC1C=COC=C2C[C@@]34S[C@]5(CC6=COC=CC(OC(C)=O)C6N5C3=O)C(=O)N4C21,Coxsackie virus,EC50,-,TYPE A21,-,HeLa,-,-,3.8 µg/mL
CC(C)CN(C[C@@H](O)[C@H](Cc1ccccc1)NC(=O)[C@H](CC(N)=O)NC(=O)c1ccc2ccccc2n1)C(=O)NC(C)(C)C,HIV-1,EC95,-,NL4-3,-,MT-4,PR-L10R M46I V82T,p24,0.1 µM
CO[C@H]1/C=C/O[C@@]2(C)Oc3c(C)c(O)c4c(O)c(c(/C=N/N5CCN(C)CC5)c(O)c4c3C2=O)NC(=O)/C(C)=C\C=C\[C@H](C)[C@H](O)[C@@H](C)[C@@H](O)[C@@H](C)[C@H](OC(C)=O)[C@@H]1C,Staphylococcus aureus,MIC90,-,20 strains (methicillin-susceptible),-,-,-,-,0.0078 µg/mL
CO/N=C(/C(=O)N[C@@H]1C(=O)N2C(C(=O)O)=C(COC(N)=O)CS[C@H]12)c1ccco1,Haemophilus influenzae,MIC50,-,44 strains,-,-,-,-,8 µg/mL
Nc1nc(Cl)nc2c1ncn2[C@@H]1O[C@H](CO)[C@@H](O)[C@H]1O,Bovine herpesvirus 1,EC50,-,IRB-LA,-,MDBK,-,cytopathic effect,>50 µM
Nc1ncnc2c1ncn2CCOCP(=O)(O)O,Epstein-Barr virus,inhibition,-,-,0.1 µM,P3HR-1,-,-,4%
CCOP(=O)(O)CC(OCn1ccc(=O)[nH]c1=O)C(C)O,Sandfly fever virus,EC50,-,Sicilian strain Vero cells,-,-,-,cytopathic effect,>320 µg/mL
CC(C)=CCN1c2cc(Cl)cc3[nH]c(=S)n(c23)C[C@@H]1C,HIV-1,EC95,-,-,-,MT-4,RT-L74V K103N,-,0.8 µM
Nc1nc2c(ncn2COC(CO)CO)c(=O)[nH]1,Varicella zoster virus,EC50,-,PFA-resistant/A,-,HEL,-,plaque count,0.33 µg/mL
C[C@@H](O)[C@H]1C(=O)N2C(C(=O)O)=C(S[C@H]3C[C@@H](C(=O)N4CC[C@H](NC(=O)CN=C(N)N)C4)N(C)C3)[C@H](C)[C@H]12,Pseudomonas aeruginosa,MIC,-,S10,-,-,-,-,1 µg/mL
Oc1ccc2oc3ccccc3c2c1,Rhinovirus,inhibition,-,TYPE 16,20 µM,HELA-H1,-,plaque count,80%
Clc1ccc([Se][Se]c2ccc(Cl)cc2)cc1,Candida dubliniensis,MIC,-,-,-,-,-,broth dilution,>64 µg/mL
C#CC[C@@H](C(=O)N[C@H](/C=C/C(=O)OCC)C[C@@H]1CCNC1=O)n1cccc(NC(=O)c2cc(C)on2)c1=O,Rhinovirus,inhibition,-,Serotype 86,0.211 µM,H1-HELA,-,cytopathic effect / XTT,90%
O=c1cnn([C@@H]2O[C@H](CO)[C@@H](O)[C@H]2O)c(=O)[nH]1,Dengue virus,EC90,-,TYPE 4 (YUNH),-,VERO,-,virus yield,<0.3 µg/mL
O=c1[nH]c(=O)n([C@H]2C[C@H](O)[C@@H](CO)O2)cc1/C=C/Br,Epstein-Barr virus,inhibition,-,-,0.1 µM,P3HR-1,-,-,3%
COc1cc([C@@H]2c3cc4c(cc3[C@@H](O[C@@H]3O[C@@H]5CO[C@@H](C)O[C@H]5[C@H](O)[C@H]3O)[C@H]3COC(=O)[C@H]23)OCO4)cc(OC)c1O,Pneumocystis carinii,inhibition,7 d,-,10 µg/mL,-,-,-,85%
c1ccc([Se][Se]c2ccccc2)cc1,Candida glabrata,MIC,-,ATCC 2001,-,-,-,broth dilution,>64 µg/mL
C#Cc1c(C(N)=O)ncn1[C@@H]1O[C@H](CO)[C@@H](O)[C@H]1O,Respiratory syncytial virus,EC50,-,TYPE A/FM-58-8,-,HeLa,-,plaque count,0.18 µg/mL
Nc1nc2c(ncn2[C@H]2CO[C@@H](CO)O2)c(=O)[nH]1,Duck hepatitis B virus,EC50,-,WILD TYPE,-,HepG2,-,-,22.3 µM
Nc1ccn(C[C@@H](CO)OCP(=O)(O)O)c(=O)n1,Varicella zoster virus,EC50,-,BVaraU-resistant,-,HEL,-,plaque count,0.032 µg/mL

Neighbouring rows are from separate reports. Zones are inhibition diameters on agar. Blank or dashed fields: not listed here. A number after MIC or MFC names an inhibition level or a share of isolates. Inhibition is in % at the dose shown (toxicity tests: loss of growth or viability).